Assay results as given in paper PMC2718843.

What was measured:
[1] = molecular target: gp120 from CC1/85 cl.7 (HIV-1)
[2] = molecular target: gp120 from D1/85.16 cl.23 (HIV-1)

“CD4-IgG2 (PRO542) (from UniProt P01730) (Fc fusion)” showed an IC50 for inhibition of replication of the clonal virus in PBMC (p24 antigen); inhibits gp120-CD4 binding [1] of 0.12 µg/mL and an IC50 for inhibition of replication of the clonal virus in PBMC (p24 antigen); inhibits gp120-CD4 binding [2] of 8 µg/mL.
